According to patent US20080076824A1, “Compounds That Inhibit Replication Of Human Immunodeficiency Virus” (priority 2004, published 2008):

Columns and labels:
HEL cell cultures = conditions: human
HeLa cell cultures = conditions: human
Vero cell cultures = conditions: African green monkey

Measured: Minimum cytotoxic concentration

NC(=O)c1ncn([C@@H]2O[C@H](CO)[C@@H](O)[C@H]2O)n1 [Ribavirin]
>400 µg/mL: all assays above
